The source of these data is patent publication US12359240B2, “Membrane protease-based methods for detection of bacteria” (Nanyang Technological University, priority 2019, dated 2025).

This data set in a line: PTAA-peptide fluorescence and optical absorption measurements (no enzyme). Particulars: PTAA 10 μg/mL. Here is the method:
All PTAA and LL37FRRY mixing were carried out in the reaction buffer. All optical absorption and fluorescence measurements were carried out on 100 μL samples in a flat bottom 96 well plate using a TECAN Infinite® 200 PRO(Switzerland). Optical absorption measurements were collected from 330-650 nm. […] To understand the effect of intact and cleaved fragments on the fluorescence intensity and optical absorption of PTAA, LL37FRRV, frag1LL37FRRV (SEQ ID NO: 47) and frag2LL37FRRV (SEQ ID NO: 48) were added in different ratios (10:0, 8:2, 6:4, 4:6, 2:8, 0:10) while keeping the total peptide concentration at 50 μM. The fluorescence intensity and optical absorption spectra were measured as mentioned before.

“C L L G D F F R R Y K E K I G (CLLGDFFRRYKEKIG; LL37FRRY)”: the “peptide concentration at which the blue shift of PTAA absorption saturates” value (pH 8 reaction buffer) is 50 µM. Further, the “peptide concentration at which the PTAA fluorescence intensity increase saturates” value (emission 550 nm, excitation 420 nm) was found to be 50 µM.
